Measured values from paper PMC11273936, “The Antimicrobial Peptide Capitellacin: Chemical Synthesis of Analogues to Probe the Role of Disulphide Bridges and Their Replacement with Vinyl Sulphides” (Antibiotics, 2024).

How the values were obtained:
[1] = system: S. aureus ATCC 25913; assay: MIC assay, bacteria (CLSI broth microdilution); assay type: cell-based, Staphylococcus aureus; details: Gram positive, CA-MHB, 37 °C with shaking, 18 h, ~5 x10^5 CFU/mL, triplicate, three biological replicates
[2] = system: E. coli ATCC 25922; assay: MIC assay, bacteria (CLSI broth microdilution); assay type: cell-based, Escherichia coli; details: for Minimum Inhibitory Concentrations, E. coli ATCC 25922: Gram negative, CLSI broth microdilution, CA-MHB, 37 °C with shaking, 18 h, ~5 x10^5 CFU/mL, triplicate, three biological replicates
[3] = system: P. aeruginosa SVB-B9; assay: MIC assay, bacteria (CLSI broth microdilution); assay type: cell-based, Pseudomonas aeruginosa; details: Gram negative, CA-MHB, 37 °C with shaking, 18 h, ~5 x10^5 CFU/mL, triplicate, three biological replicates
[4] = system: S. aureus ATCC 25923; details: recombinant capitellacin; ref Panteleev et al. (2020) [12]; cited from earlier work
[5] = system: P. aeruginosa PAO1; details: recombinant capitellacin; ref Panteleev et al. (2020) [12]; cited from earlier work
[6] = system: E. coli ATCC 25922; details: recombinant capitellacin; ref Panteleev et al. (2020) [12]; cited from earlier work

Which “Minimum Inhibitory Concentrations, S. aureus ATCC 25913” value [1] does the source give for `CC[C@H](C)[C@@H]1NC(=O)[C@@H](NC(=O)[C@@H](NC(=O)[C@H](CCCNC(=N)N)NC(=O)[C@@H]2CCCN2C(=O)[C@@H](N)CO)C(C)C)CSSC[C@@H](C(=O)N[C@@H](Cc2c[nH]c3ccccc23)C(=O)NCC(=O)O)NC(=O)[C@H](CCCNC(=N)N)NC(=O)[C@H](CCCNC(=N)N)NC(=O)[C@H](Cc2ccc(O)cc2)NC(=O)[C@@H]2CSSC[C@H](NC(=O)[C@H](C(C)C)NC(=O)[C@H](CCCNC(=N)N)NC1=O)C(=O)N[C@@H](CCCNC(=N)N)C(=O)N[C@@H](CC(N)=O)C(=O)NCC(=O)N[C@@H](C(C)C)C(=O)N2` here?
Its value is >64 µM.

And the “Minimum Inhibitory Concentrations, E. coli ATCC 25922” value [2]?
Its value is 1 µM.

What about the “Minimum Inhibitory Concentrations, P. aeruginosa SVB-B9 (type strain)” value [3] of the same compound?
Its value is 4 µM.

What about the “Minimum Inhibitory Concentrations, S. aureus ATCC 25923” value [4] of the same compound?
The value was 8 µM.

What about the “Minimum Inhibitory Concentrations, P. aeruginosa PAO1” value [5] of the same compound?
The value was 2 µM.

What about the “Minimum Inhibitory Concentrations, E. coli ATCC 25922” value [6] of the same compound?
Its value is 0.5 µM.

Which results are given for `CC[C@@H](C)[C@H]1NC(=O)[C@H](NC(=O)[C@H](NC(=O)[C@@H](CCCNC(=N)N)NC(=O)[C@H]2CCCN2C(=O)[C@H](N)CO)C(C)C)CSSC[C@H](C(=O)N[C@H](Cc2c[nH]c3ccccc23)C(=O)NCC(=O)O)NC(=O)[C@@H](CCCNC(=N)N)NC(=O)[C@@H](CCCNC(=N)N)NC(=O)[C@@H](Cc2ccc(O)cc2)NC(=O)[C@H]2CSSC[C@@H](NC(=O)[C@@H](C(C)C)NC(=O)[C@@H](CCCNC(=N)N)NC1=O)C(=O)N[C@H](CCCNC(=N)N)C(=O)N[C@H](CC(N)=O)C(=O)NCC(=O)N[C@H](C(C)C)C(=O)N2`?
Minimum Inhibitory Concentrations, S. aureus ATCC 25913 [1]: >64 µM; Minimum Inhibitory Concentrations, E. coli ATCC 25922 [2]: 4 µM; fold reduction in activity towards the Gram-negative strains tested ([2]; compared to synthetic capitellacin (1), E. coli and P. aeruginosa): 2–4 fold; Minimum Inhibitory Concentrations, P. aeruginosa SVB-B9 (type strain) [3]: 8 µM

Read-outs that look alike come from different tables or passages of the source.
